Pooled drug test results. Numbers come from NIAID ChemDB, via PubChem.

Shared fields: tests in culture

Rows are shuffled and stem from different studies. Blank or dashed fields: not listed here. ECn is the concentration giving n% inhibition of infection, replication or growth. Fold resistance has wild type as its base. a–b is a range or a potency band. Percent inhibition refers to the dose given; in toxicity tests it is the harm to the cells.

SMILES	species	strain or isolate	changes	cell line	method	endpoint	tested at	value
COc1ccc(Sc2nc(N)nc3c2ncn3CCOCP(=O)(OCC(F)(F)F)OCC(F)(F)F)cc1	Hepatitis B virus	Mutation M552I	-	Huh7	-	EC50	-	2.6 µM
O=c1[nH]cnc2c1ncn2CCOCCP(=O)(O)O	Hepatitis B virus	-	-	HB611	-	EC50	-	>400 µM
CCC(CCC(C)C1CCC2C3C[C@@H](O)[C@@]4(O)C[C@@H](O)CCC4(C)C3CCC12C)C(C)C	Hepatitis B virus	-	-	HepG2 2.2.15	antigen	inhibition	12.5 µg/mL	12.2%
CC(C)OC(=O)CCC1COP(=O)(CO[C@H](C)Cn2cnc3c(NC(=O)c4ccccc4)ncnc32)OC1	Hepatitis B virus	Genotype D	-	PHH	PCR	inhibition	1 µM	50–80%
CC(OCP(=O)(O)O)[C@@H](O)n1cnc(=N)c2[nH]cnc21	Hepatitis B virus	-	-	HB611	-	EC50	-	32 µM
CC[C@H]1C[C@]1(NC(=O)[C@@H]1C[C@@H]2CN1C(=O)[C@H](C(C)(C)C)NC(=O)OCC(C)(C)CCCCc1cccc3c1CN(C3)C(=O)O2)C(=O)NS(=O)(=O)C1CC1	Hepatitis C virus	JFH-1	-	Huh7.5	antigen	EC50	-	0.024 µM
COC(=O)CCC1COP(=O)(CO[C@H](C)Cn2cnc3c(N)ncnc32)OC1	Hepatitis B virus	Genotype D	-	HepaRG	PCR	inhibition	1 µM	50–80%
CCC[C@H](NC(=O)[C@@H]1[C@H]2CCC[C@H]2CN1C(=O)[C@@H](NC(=O)[C@@H](NC(=O)c1cnccn1)C1CCCCC1)C(C)(C)C)C(=O)C(=O)NC1CC1	Hepatitis C virus	1b D168A	-	-	luciferase	EC50	-	0.377 µM
CC(C)OC(=O)[C@H](C)N[P@](=O)(OC[C@H]1O[C@@](C#N)(c2ccc3c(N)ncnn23)[C@](C)(O)[C@@H]1OC(=O)C(C)C)Oc1ccccc1	Hepatitis C virus	1b Con1	A156T	1C	luciferase	fold resistance	-	0.36
Nc1ncnc2c1ncn2CCCCP(=O)(O)O	Hepatitis B virus	-	-	HB611	-	EC50	-	20 µM
C[C@@]1(O)[C@H](O)[C@@H](CO)O[C@H]1c1c[nH]c2c(N)ncnc12	Hepatitis C virus	-	-	HepG2-T5B	MTT	inhibition	2 µg/mL	6.15%
COc1ccc2c(O[C@@H]3C[C@H]4C(=O)N[C@]5(C(=O)NS(=O)(=O)C6CC6)C[C@H]5/C=C\CCCCN(C)C(=O)[C@@H]4C3)cc(-c3nc(C(C)C)cs3)nc2c1C	Hepatitis C virus	1b	-	Huh7	luciferase / replicon	inhibition	0.024 µM	97.79%
C[C@@]1(O)[C@H](O)[C@@H](CO)O[C@H]1n1ccc2c(N)ncnc21	Hepatitis C virus	-	-	HepG2-T5B	MTT	inhibition	10 µg/mL	0%
CC(C)(CO)C(=O)SCCOP(=O)(NCc1ccccc1)OC[C@H]1O[C@@H](n2cnc3c(=O)[nH]c(N)nc32)[C@](C)(O)[C@@H]1O	Hepatitis C virus	GT1a	T260A	Replicon cells	replicon	fold resistance	-	1.7
C[C@H](Cn1cnc2c(N)ncnc21)OCP(=O)(O)O	Hepatitis B virus	Genotype D	-	PHH	PCR	inhibition	1 µM	≤30%
Nc1ncnc2c1ncn2CCCOCP(=O)(O)O	Hepatitis B virus	-	-	HB611	-	EC50	-	32 µM
Nc1nc2c(ncn2CCC(CO)CO)c(=O)[nH]1	Hepatitis B virus	WILD TYPE	-	HepG2	-	EC50	-	11.5 µM
COC(=O)N[C@H](C(=O)N1CCC[C@H]1c1ncc(-c2ccc(-c3ccc(-c4cnc([C@@H]5CCCN5C(=O)[C@@H](NC(=O)OC)C(C)C)[nH]4)cc3)cc2)[nH]1)C(C)C	Hepatitis C virus	Con1	L31V	1C	luciferase	fold resistance	-	17
N=c1ncn(CC(CO)OCP(=O)(O)O)c2nc[nH]c12	Hepatitis B virus	-	-	HB611	-	EC50	-	200 µM
COC(=O)N[C@H](C(=O)N1CCC[C@H]1c1ncc(-c2ccc(-c3ccc(-c4cnc([C@@H]5CCCN5C(=O)[C@@H](NC(=O)OC)C(C)C)[nH]4)cc3)cc2)[nH]1)C(C)C	Hepatitis C virus	1b Con1	-	Huh7	luciferase / replicon	inhibition	0.00002 µM	58.64%
Nc1nccc2c1ncn2CCOCP(=O)(O)O	Hepatitis B virus	-	-	HB611	-	EC50	-	<17.4 µM
CCOC(=O)CC1COP(=O)(CO[C@H](C)Cn2cnc3c(N(C(C)=O)C(C)=O)ncnc32)OC1	Hepatitis B virus	Genotype D	-	PHH	PCR	inhibition	1 µM	50–80%
Nc1nccc2c1ncn2C[C@@H](CO)OCP(=O)(O)O	Hepatitis B virus	-	-	HB611	-	EC50	-	<16 µM
CCOC(=O)CC1COP(=O)(CO[C@H](C)Cn2cnc3c(NC(=O)c4ccccc4)ncnc32)OC1	Hepatitis B virus	Genotype D	-	PHH	PCR	inhibition	1 µM	≤30%
CC(C)(C)OC(=O)N[C@@H]1CCCCC/C=C\[C@@H]2C[C@@]2(C(=O)NS(=O)(=O)C2CC2)NC(=O)[C@@H]2C[C@@H](OC(=O)N3Cc4cccc(F)c4C3)CN2C1=O	Hepatitis C virus	JCH2	-	Huh7.5	antigen	EC50	-	0.097 µM

A second listing of 2 rows from above:

SMILES,species,strain or isolate,changes,cell line,method,endpoint,tested at,value
CCOC(=O)CC1COP(=O)(CO[C@H](C)Cn2cnc3c(NC(=O)c4ccccc4)ncnc32)OC1,Hepatitis B virus,Genotype D,-,PHH,PCR,inhibition,1 µM,≤30%
CCOC(=O)CC1COP(=O)(CO[C@H](C)Cn2cnc3c(N(C(C)=O)C(C)=O)ncnc32)OC1,Hepatitis B virus,Genotype D,-,PHH,PCR,inhibition,1 µM,50–80%